Pooled drug test results. Numbers come from NIAID ChemDB, via PubChem.

Common to all: tests in culture; organism: HIV-1; measure: inhibition

An empty or dashed field is not shown. Percent inhibition refers to the dose given; in toxicity tests it is the harm to the cells. Conditions beyond the fields shown may differ between rows.

SMILES	setting	dose	strain or isolate	cells	read by	value
Nc1nc(Cl)nc2c1ncn2[C@H]1CC[C@@H](CO)O1		20 µM	HXBc2	C8166	RT activity	43%
O=c1c(O)c(-c2ccc(O)c(O)c2)oc2cc(O)cc(O)c12		40 µM		PBMC	p24	80%
O=C(O)CCCCCCCCCCCI		20 µM	IIIB	CEM + CEM-SS	cytopathic effect / XTT	45.3%
OC[C@@H]1CC[C@H](n2cnc3c(Br)ncnc32)O1		20 µM	IIIB	ATH8	cytopathic effect / trypan blue	80%
NC(=O)c1[nH]nc([C@@H]2O[C@H](CO)[C@@H](O)[C@H]2O)c1O		100 µg/mL	LAV Laboratory strain	ATH8	cytopathic effect	0%
CCSCCCCCCCCCCC(=O)O		6.3 µM	IIIB	CEM + CEM-SS	cytopathic effect / XTT	11.2%
Cc1cc(SC2=C(O)C[C@@](CCc3ccc(O)cc3)(C(C)C)OC2=O)c(C(C)(C)C)cc1CO		1 µM	IIIB	CEM	cytopathic effect / MTT	90%
O=c1[nH]cnc2c1ncn2[C@H]1CC[C@@H](CO)O1		10 µM	IIIB	ATH8	cytopathic effect / trypan blue	97%
CCCCCCCCCCOCCC(=O)O		20 µM	IIIB	CEM + CEM-SS	cytopathic effect / XTT	4.8%
O=c1oc2ccccc2c2c1C(c1ccncc1)c1c(c3ccccc3oc1=O)O2		100 µM	93IN101	SupT1	p24 / ELISA	20%
Cc1cc(SC2=C(O)C[C@@](CCc3ccc(N)cc3)(C(C)C)OC2=O)c(C(C)(C)C)cc1CO		1 µM	IIIB	CEM	cytopathic effect / MTT	90%
OC[C@H]1NC[C@H](O)[C@@H](O)[C@@H]1O		1000 µM	CLB 32	U-937	syncytia	100%
C[C@H]1[C@H](O)[C@@H](C)/C=C/C=C/C=C/C=C/C=C/C=C/C=C/[C@H](O[C@@H]2O[C@H](C)[C@@H](O)[C@H](N)[C@@H]2O)C[C@@H]2O[C@](O)(C[C@@H](O)C[C@@H](O)CC[C@H](O)[C@@H](O)C[C@@H](O)CC(=O)O[C@H]1C)C[C@H](O)[C@H]2C(=O)O		10 µg/mL		H9	p24 / ELISA	83%
CCSCCCCCCCCCCCC(=O)O		6.3 µM	IIIB	CEM + CEM-SS	cytopathic effect / XTT	47%
CC(C)CN(C[C@@H](O)[C@H](Cc1ccccc1)NC(=O)[C@@H](NC(=O)CNCc1cccc(F)c1)C(C)(C)C)S(=O)(=O)c1cccc(N)c1		0.011 µM	THAI 9466	MT-2	virus yield	90%
O=C(O)CCCCCCCCCCCO		20 µM	IIIB	CEM + CEM-SS	cytopathic effect / XTT	24.7%
CO[C@@H]1[C@@H](O)[C@@H](O)[C@H](O)[C@H](O)[C@H]1n1ccc(N)nc1=O		10 µg/mL	IIIB	MT-4	cytopathic effect / MTT	52.4%
CCSCCCCCCCCCCC(=O)O		100 µM		H9	RT activity	92%
Nc1nc(N)c2ncn([C@H]3CC[C@@H](CO)O3)c2n1		200 µM	IIIB	ATH8	cytopathic effect / trypan blue	100%
O=C(O)CCCCCCCCCCCc1ccccc1		20 µM	IIIB	CEM + CEM-SS	cytopathic effect / XTT	15.3%
CO[C@H]1[C@@H](O)[C@H](n2ccc(N)nc2=O)[C@@H](O)[C@H](O)[C@@H]1O		10 µg/mL	IIIB	MT-4	cytopathic effect / MTT	25.5%
Nc1nc(Cl)nc2c1ncn2[C@H]1CC[C@@H](CO)O1		2 µM	IIIB	ATH8	cytopathic effect / trypan blue	1%
CCCCCCCCOCCCCC(=O)O		100 µM		H9	RT activity	83%
O=C(O)[C@H]1O[C@@H](Oc2cc3oc(-c4ccccc4)cc(=O)c3c(O)c2O)[C@H](O)[C@@H](O)[C@@H]1O		100 µg/mL	MN	PBMC	cytopathic effect / p24 / ELISA	77%
O=C(NCc1ccc(F)cc1)c1nc(N2CCCCS2(=O)=O)c2cccnc2c1O		0.1 µM	IIIB	MT-4	p24	95%
COc1c2c(cc3oc(=O)c(-c4ccc(O)cc4O)cc13)OC(C)(CO)CC2		20 µg/mL		MOLT-4/OKM-1(HIV-1) + MOLT-4	syncytia	100%
COC(=O)[C@H](C)NP(=O)(OC[C@@H]1O[C@H](n2ccc(N)nc2=O)CS1)Oc1ccccc1	18 d	10 µM	IIIB	CEM	cytopathic effect	50%
Cc1cn([C@H]2C[C@H](N=[N+]=[N-])[C@@H](CO)O2)c(=O)[nH]c1=O		0.03 µM	LAV	PBMC	RT activity	90%
Nc1nc(Cl)c2ncn(CCCCCB(O)O)c2n1		0.5 µM	BaL	PBMC	p24	55%
c1cc(CN2CCCNCCNCCCNCC2)ccc1CN1CCCNCCNCCCNCC1		0.1 µM	SW12 CLADE C X4	PBMC	p24	31%
O=c1oc2ccccc2c2c1C(c1cccnc1)c1c(c3ccccc3oc1=O)O2		100 µM	93IN101	SupT1	p24 / ELISA	20%
OC[C@@H]1CC[C@H](n2cnc3c(=S)nc[nH]c32)O1		20 µM	IIIB	ATH8	cytopathic effect / trypan blue	2%
Nc1ncnc2c1ncn2[C@@H]1O[C@H](CO)[C@@H](O)[C@@H]1O		1 µg/mL	LAV Laboratory strain	ATH8	cytopathic effect	10%
C1CNCCNCCCN(CCCN2CCCNCCNCCCNCC2)CCNC1		0.87 µM	RF	MT-4	cytopathic effect / MTT	90%
CO[C@H]1[C@@H](O)[C@H](n2cnc3c(N)ncnc32)[C@@H](O)[C@H](O)[C@@H]1O		10 µg/mL	IIIB	MT-4	cytopathic effect / MTT	87.2%
CCCOCCCCCCCCCC(=O)O		100 µM		H9	RT activity	85%
CC(C)=CCc1c(O)c(C(=O)C(C)C)c(O)c2c(-c3ccccc3)cc(=O)oc12		1.25 µM	NL4-3 Recombinant	Jurkat cells	luciferase	40%
Cc1cc(-c2ccc(N=Nc3ccc4c(S(=O)(=O)O)cc(S(=O)(=O)O)c(N)c4c3O)c(C)c2)ccc1N=Nc1ccc2c(S(=O)(=O)O)cc(S(=O)(=O)O)c(N)c2c1O		100 µg/mL	LAV Laboratory strain	ATH8	cytopathic effect	100%
CCCCCOCCCCCCCC(=O)O		20 µM	IIIB	CEM + CEM-SS	cytopathic effect / XTT	13.4%
C/C(=C(/CCO)SSCC1CCCO1)N(C=O)Cc1cnc(C)nc1N		50 µM	IIIB	MOLT-4/HIV-1(IIIB) + MOLT-4	p24	0%
Nc1nc(F)c2ncn([C@H]3CC[C@@H](CO)O3)c2n1		2 µM	BaL	MM + M/M	cytopathic effect / trypan blue	100%
Nc1ccn([C@@H]2O[C@H](CO)C[C@@H]2F)c(=O)n1		1 µM	IIIB	H9	antigen	44%

For reference, 6 entries again:

SMILES | setting | dose | strain or isolate | cells | read by | value
C/C(=C(/CCO)SSCC1CCCO1)N(C=O)Cc1cnc(C)nc1N |  | 50 µM | IIIB | MOLT-4/HIV-1(IIIB) + MOLT-4 | p24 | 0%
CCSCCCCCCCCCCC(=O)O |  | 100 µM |  | H9 | RT activity | 92%
O=c1oc2ccccc2c2c1C(c1ccncc1)c1c(c3ccccc3oc1=O)O2 |  | 100 µM | 93IN101 | SupT1 | p24 / ELISA | 20%
CCCCCCCCCCOCCC(=O)O |  | 20 µM | IIIB | CEM + CEM-SS | cytopathic effect / XTT | 4.8%
Cc1cc(-c2ccc(N=Nc3ccc4c(S(=O)(=O)O)cc(S(=O)(=O)O)c(N)c4c3O)c(C)c2)ccc1N=Nc1ccc2c(S(=O)(=O)O)cc(S(=O)(=O)O)c(N)c2c1O |  | 100 µg/mL | LAV Laboratory strain | ATH8 | cytopathic effect | 100%
Nc1nc(N)c2ncn([C@H]3CC[C@@H](CO)O3)c2n1 |  | 200 µM | IIIB | ATH8 | cytopathic effect / trypan blue | 100%